# Test results reported in paper PMC6722932 (Toxins, 2019).
# B1: lysenin^V88C/Y131C (natural protein)
# chain: MSAKAAEGYEQIEVDVVAVWKEGYVYENRGSTSVDQKITITKGMKNVNSETRTVTATHSIGSTISTGDAFEIGSVEVSYSHSHEESQCSMTETEVYESKVIEHTITIPPTSKFTRWQLNADVGGADIEYMCLIDEVTPIGGTQSIPQVITSRAKIIVGRQIILGKTEIRIKHAERKEYMTVVSRKSWPAATLGHSKLFKFVLYEDWGGFRIKTLNTMYSGYEYAYSSDQGGIYFDQGTDNPKQRWAINKSLPLRHGDVVTFMNKYFTRSGLCYDDGPATNVYCLDKREDKWILEVVG
# Biological target: the molecule itself
# Experiment: negative-stain electron microscopy
protein,measurement,value
B1,binding result,binds
